Experimental data taken from PubChem BioAssay AID624414 (National Center for Advancing Translational Sciences (NCATS), 2012).
This is a selection; strong and weak results do not stand in their true shares. Activity calls are given as the source filed them. Rule as the data show it: active = activation above about 50%; inconclusive = mostly about 30% to 49%; inactive = weaker than that.

Amino acid sequences for entries named in this document (tags omitted).
UniProt Q9GZU1, whole entry: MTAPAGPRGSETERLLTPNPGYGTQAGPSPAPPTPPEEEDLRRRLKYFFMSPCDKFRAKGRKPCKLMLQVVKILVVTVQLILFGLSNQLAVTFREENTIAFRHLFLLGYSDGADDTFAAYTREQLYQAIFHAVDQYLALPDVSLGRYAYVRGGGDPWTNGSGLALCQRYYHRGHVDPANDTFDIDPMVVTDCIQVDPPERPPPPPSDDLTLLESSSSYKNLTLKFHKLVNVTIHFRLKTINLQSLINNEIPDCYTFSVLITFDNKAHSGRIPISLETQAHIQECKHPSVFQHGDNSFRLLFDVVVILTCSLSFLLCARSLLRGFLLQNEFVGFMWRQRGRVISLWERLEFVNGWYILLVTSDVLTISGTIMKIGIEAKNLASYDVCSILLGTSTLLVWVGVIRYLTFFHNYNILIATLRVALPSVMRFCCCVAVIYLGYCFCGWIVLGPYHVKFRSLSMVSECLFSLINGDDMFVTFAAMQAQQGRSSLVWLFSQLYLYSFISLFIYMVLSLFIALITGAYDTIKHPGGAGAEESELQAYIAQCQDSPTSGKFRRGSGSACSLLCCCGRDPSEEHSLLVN

Target: Mucolipin-1 (Homo sapiens) (UniProt Q9GZU1)
Assay: qHTS for Agonists of the Human Mucolipin Transient Receptor Potential 1 (TRPML1); also: 0% is about no effect
Conditions: TRPML1-expressing cells, Ca2+ dye fluorescence, FDSS; hits give high values
How it was run: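 Cells: TRPML1-DL, 1X Tet inducer, ~16 h at 37 degrees C/5% CO2. Dye: ABD Ca8 no-wash + quencher, 45-90 min RT. Read: 10 s baseline, compound add, 110 s agonist phase; 54-4 EC80 (4uM final), 110 s antagonist phase.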

| SMILES | activation |
| --- | --- |
| Cc1ccc(N/C(=N/P(=O)(N2CCOCC2)N2CCOCC2)N2CCOCC2)cc1 | inactive: -0.0832% |
| NC(=O)c1cc([N+](=O)[O-])cc([N+](=O)[O-])c1N | inactive: -0.264% |
| O=[N+]([O-])c1cc2c(cc1[N+](=O)[O-])OCO2 | inactive: -0.285% |
| CCc1ccc(OP(C)(=O)O)cc1 | inactive: -0.524% |
| O=[N+]([O-])C1C(O)C(O)C([N+](=O)[O-])C(O)C1O (configuration not stated) | inactive: -0.483% |
| CP(=O)(Nc1ccccn1)Oc1ccccc1 (configuration not stated) | inactive: 0.605% |
| COc1ccccc1OP(C)(=O)Nc1ccc(C)cc1C (configuration not stated) | inactive: 0.972% |
| Oc1ccccc1CNc1ccccn1 | inactive: 0% |
| O=C(NC(Sc1ccncn1)C(Cl)(Cl)Cl)c1ccccc1 (configuration not stated) | inactive: 0.57% |
| Cc1c(NP(C)(=O)Oc2ccc(C(C)C)cc2)c(=O)n(-c2ccccc2)n1C (configuration not stated) | inactive: -0.545% |
| Nc1cc(N)c2nonc2c1[N+](=O)[O-] | inactive: -0.428% |
| CC(C)CC(=O)NC(Sc1ccc(Cl)cc1)C(Cl)(Cl)Cl (configuration not stated) | inactive: 1.68% |
| O=[N+]([O-])c1cc([N+](=O)[O-])c(Nc2ccccn2)c([N+](=O)[O-])c1 | inactive: 0.0379% |
| COc1ccc(OP(C)(=O)Nc2ccccc2Br)cc1 (configuration not stated) | inactive: 0.0351% |
| Cc1cc(SC(NC(=O)c2ccc(F)cc2)C(Cl)(Cl)Cl)ncn1 (configuration not stated) | inactive: -0.326% |
| CCOP(=O)(Nc1ccccc1)OCC | inactive: 0.67% |
| COc1ccccc1OP(C)(=O)Nc1ccc(C)c(C)c1 (configuration not stated) | inactive: -0.275% |
| Cc1ccc(NP(=O)(Oc2ccccc2F)Oc2ccccc2F)nc1 | inactive: 0.337% |
| CN(C(=O)Cc1ccc(Cl)c(Cl)c1)[C@H]1CCCC[C@@H]1N1CCCC1 | inactive: -1.04% |
| O=P(Nc1nc2ccc(Cl)cc2s1)(c1ccccc1)c1ccccc1 | inactive: 0.778% |
| Cc1cc(C)cc(OP(C)(=O)Nc2cccc(C(F)(F)F)c2)c1 (configuration not stated) | inactive: 3.67% |
| CN(C)P(=O)(N(C)C)n1c(Nc2ccccc2)nnc1-c1ccccc1 | inactive: -0.595% |
| CC(=O)Nc1ccc([As](=O)(O)O)cc1 | inactive: -0.539% |

| SMILES | activation |
| --- | --- |
| O=C(O)c1ccccc1[As](=O)(O)O | inactive: -1.02% |
| CCCC1OP(N)(=O)OCC1CC (configuration not stated) | inactive: 0.506% |
| Nc1cccc2ccc([As](=O)(O)O)cc12 | inactive: -0.674% |
| CCCCCCCCCCCCCCCC1C[N+](C)(C)CCOP(C)(=O)O1 (configuration not stated) | inactive: 15.8% |
| CP(=O)(Nc1ccc(Cl)cc1Cl)Oc1ccccc1 (configuration not stated) | inactive: -0.331% |
| CP(=O)(OCCOc1ccccc1)OCCOc1ccccc1 | inactive: 0.988% |
| CCN(N=Nc1nonc1N)c1nonc1N | inactive: -0.0684% |
| Nc1c(O)cc([N+](=O)[O-])cc1[N+](=O)[O-] | inactive: -1.12% |
| COc1ccc(OP(C)(=O)Nc2ccc(SC(F)(F)F)cc2)cc1 (configuration not stated) | inactive: 0.0975% |
| O=P1(N(CCCl)CCCl)OCCC2CCCCN21 (configuration not stated) | inactive: -0.428% |
| CCOC(=O)c1ccc(NP(C)(=O)Oc2ccc(F)cc2)cc1 (configuration not stated) | inactive: -0.38% |
| c1ccc(-c2nn[nH]n2)c(-c2nn[nH]n2)c1 | inactive: 0.774% |
| Cc1ccc(NP(=O)(Oc2cccc(C)c2)Oc2cccc(C)c2)nc1 | inactive: 1.13% |
| O=[N+]([O-])c1cc([N+](=O)[O-])c2nc[nH]c2c1 | inactive: -0.236% |
| CCNC(=S)/N=C(\N)N[N+](=O)[O-] | inactive: 1.2% |
| O=C(NC1CCS(=O)(=O)C1)NP(=S)(Oc1ccccc1)Oc1ccccc1 (configuration not stated) | inactive: -0.693% |
| CC(NC(=O)COC(=O)C(O)(c1ccccc1)c1ccccc1)c1ccccc1 (configuration not stated) | inactive: 1.05% |
| Cc1ccccc1OP(=O)(Nc1ccccn1)Oc1ccccc1C | inactive: 2.46% |
| O=c1c2cc([N+](=O)[O-])ccc2[nH]c2c([N+](=O)[O-])cc([N+](=O)[O-])cc12 | inactive: 1.85% |
| CCCCCOc1ccc(NP(C)(=O)Oc2ccc(Cl)cc2Cl)cc1 (configuration not stated) | inactive: 2.23% |
| CN(C)C(=O)Oc1noc2ccccc12 | inactive: 0.607% |
| CP(=O)(Nc1ccccc1)Oc1ccc(F)cc1 (configuration not stated) | inactive: -0.295% |
| O=C(OC1CN2CCC1CC2)c1ccccc1 (configuration not stated) | inactive: -0.368% |

| SMILES | activation |
| --- | --- |
| CCN(CC)CCCOC(=O)C(O)(c1ccccc1)C1CCCCC1 (configuration not stated) | inactive: -0.419% |
| CCC(=O)N1C2C3N(C(=O)CC)C1C1N(C(=O)CC)C(C(N1C(=O)CC)N3C(=O)CC)N2C(=O)CC | inactive: 1.23% |
| Cc1c([N+](=O)[O-])cc([N+](=O)[O-])c(Br)c1[N+](=O)[O-] | inactive: -0.709% |
| COC(=O)c1cc2c(s1)N=C(c1ccccc1)N(C)P2(=O)N1CCOCC1 (configuration not stated) | inactive: -0.123% |
| CC(=O)NC(SC(=S)N(CC(C)C)CC(C)C)C(Cl)(Cl)Cl (configuration not stated) | inactive: 0.54% |
| Cc1ccc(OP(=O)(Nc2ccccn2)Oc2ccc(C)cc2)cc1 | inactive: -0.255% |
| CC(C)(C)C(=O)NC(Sc1ccccc1)C(Cl)(Cl)Cl (configuration not stated) | inactive: 1.33% |
| CC(C)c1ccc(OP(C)(=O)Nc2ccc(SC(F)(F)F)cc2)cc1 (configuration not stated) | inactive: 2.46% |
| CCc1cc(O)c([N+](=O)[O-])c(C)c1[N+](=O)[O-] | inactive: 1.01% |
| CP(=O)(Nc1ccccc1F)Oc1ccccc1 (configuration not stated) | inactive: -0.291% |
| O=P1(Nc2nc3ccc(Cl)cc3s2)COc2ccccc2O1 (configuration not stated) | inactive: -0.177% |
| CCOc1ccc(C2=NCC(CBr)S2)cc1 (configuration not stated) | inactive: 0.408% |
| CC(=O)Nc1ccc([As](=O)(O)O)c(O)c1 | inactive: 0.14% |
| CC(=O)Nc1ccc(Oc2c([N+](=O)[O-])cc([N+](=O)[O-])cc2[N+](=O)[O-])cc1 | inactive: -0.157% |
| Cc1ccccc1CN(C)C(=O)COC(=O)C(O)(c1ccccc1)c1ccccc1 | inactive: 1.68% |
| O=C(OCCN1CCN(CCOCc2ccccc2)CC1)C(O)(c1ccccc1)c1ccccc1 | inactive: 0.775% |
| C[C@H]1OP(=O)(Oc2ccccc2)C[C@@H]2O[C@@H]21 (some centres not stated) | inactive: -0.242% |
| C[C@@H]1C=CCP(=O)(Oc2ccccc2)O1 (some centres not stated) | inactive: -0.448% |
| CC(=O)c1ccc(N2CC2c2ccncc2)cc1 (configuration not stated) | inactive: 0.532% |
| N#C/C(=C\c1ccc(N(CCBr)CCBr)cc1)C(N)=O | inactive: -0.323% |
| COC(=O)C1(C)COP(=O)(NCc2ccccc2)OC1 (configuration not stated) | inactive: 0.184% |
| c1nnnn1CCn1cnnn1 | inactive: 0.314% |
| CCOP(C)(=S)SCC(=O)NC(C)(CC)C(=O)O (configuration not stated) | inactive: -0.524% |

| SMILES | activation |
| --- | --- |
| CC(C)C(=O)NC(Sc1ccccc1)C(Cl)(Cl)Cl (configuration not stated) | inactive: 0.103% |
| O=P(Nc1nccs1)(c1ccccc1)c1ccccc1 | inactive: -1.01% |
| CP(=O)(Nc1ccc(SC(F)(F)F)cc1)Oc1ccc(F)cc1 (configuration not stated) | inactive: 0.659% |
| O=[N+]([O-])c1cc([N+](=O)[O-])c(C(F)(F)F)c([N+](=O)[O-])c1O | inactive: -0.0965% |
| COc1cccc([N+](=O)[O-])c1[N+](=O)[O-] | inactive: -0.501% |
| Cc1ccccc1NP(C)(=O)Nc1ccccc1C | inactive: -0.295% |
| CP(=O)(Nc1ccc2c(c1)OCCO2)Oc1ccccc1 (configuration not stated) | inactive: -0.0689% |
| COc1ccc(NP(C)(=O)Oc2ccccc2OC)cc1 (configuration not stated) | inactive: 0.548% |
| CN(C)CCOC(=O)C(O)(c1ccccc1)C1CCCCC1 (configuration not stated) | inactive: 0.734% |
| O=P(Nc1nc2ccccc2s1)(c1ccccc1)c1ccccc1 | inactive: 1.2% |
| C[C@H]1OP(=O)(Oc2ccccc2)[C@H](O)[C@H](O)[C@H]1N=[N+]=[N-] (some centres not stated) | inactive: -0.376% |
| O=P(Nc1ccccn1)(c1ccc(Br)cc1)c1ccc(Br)cc1 | inactive: -0.17% |
| CN(C)C1(CNC(=O)c2ccc(Cl)c(S(N)(=O)=O)c2)CCCCC1 | inactive: -0.163% |
| COc1ccc(OP(C)(=O)Nc2cccc(Br)c2)cc1 (configuration not stated) | inactive: 0.442% |
| COc1ccc(N)c([N+](=O)[O-])c1[N+](=O)[O-] | inactive: -0.893% |
| O=C(OC1CN2CCC1CC2)c1cccc(Cl)c1 (configuration not stated) | inactive: -0.629% |
| Cc1c(C(c2ccc3c(c2)OCO3)c2c(C)n(C)n(-c3ccccc3)c2=O)c(=O)n(-c2ccccc2)n1C.O=[N+]([O-])c1cc([N+](=O)[O-])c(O)c([N+](=O)[O-])c1 | inactive: 0.147% |
| C(Cc1nn[nH]n1)Cc1nn[nH]n1 | inactive: -0.26% |
| Nc1ccc([As](=O)(O)c2ccc([N+](=O)[O-])cc2)cc1 | inactive: 0.493% |
| O=[As](O)(c1ccccc1)c1ccc(O)cc1 | inactive: 2.19% |
| Cc1cc(-c2cccc3ccccc23)c(C)cn1.O=[N+]([O-])c1cc([N+](=O)[O-])c(O)c([N+](=O)[O-])c1 | inactive: 2.43% |
| CC(=O)NC(SC(=S)N(C)C)C(Cl)(Cl)Cl (configuration not stated) | inactive: 0.884% |
| O=[N+]([O-])c1ccc(OP2(=O)COCCO2)cc1 (configuration not stated) | inactive: 0.318% |
